# Data published in patent US9181234B2, “Antibacterial compounds” (priority 2010, dated 2015).
# Protein sequences, listed by entry. Tags and fused reporters are not part of them.
# UniProt P0A0K8, whole entry: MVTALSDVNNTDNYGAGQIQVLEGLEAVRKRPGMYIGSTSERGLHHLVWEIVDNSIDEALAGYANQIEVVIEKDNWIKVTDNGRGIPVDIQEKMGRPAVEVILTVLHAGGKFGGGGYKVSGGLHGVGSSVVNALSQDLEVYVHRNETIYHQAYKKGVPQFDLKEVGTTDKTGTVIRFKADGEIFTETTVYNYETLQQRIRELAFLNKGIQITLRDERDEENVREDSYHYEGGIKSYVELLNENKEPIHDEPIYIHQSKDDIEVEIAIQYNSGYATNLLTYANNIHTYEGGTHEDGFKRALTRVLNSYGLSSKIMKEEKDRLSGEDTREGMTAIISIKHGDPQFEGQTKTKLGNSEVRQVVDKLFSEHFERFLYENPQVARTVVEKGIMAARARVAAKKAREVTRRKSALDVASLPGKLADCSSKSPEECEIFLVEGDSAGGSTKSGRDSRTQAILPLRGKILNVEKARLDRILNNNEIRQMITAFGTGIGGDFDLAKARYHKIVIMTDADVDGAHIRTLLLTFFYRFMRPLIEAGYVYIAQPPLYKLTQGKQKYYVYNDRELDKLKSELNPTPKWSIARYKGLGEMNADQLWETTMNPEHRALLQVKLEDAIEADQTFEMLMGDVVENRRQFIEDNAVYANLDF
# The structures given here were assigned with low confidence; some may be wrong.
# How the values were obtained:
# [1] = system: Staphylococcus aureus (Isolate ID ATCC 29213); test: Antibacterial activity, MIC, S. aureus; type: cell-based; details: Gram positive strain; broth microdilution or agar dilution
# Experimental: (§1) Bacterial Assay: Determination of Antibacterial Activity
# (§2) Compounds of the invention were tested for antimicrobial activity by susceptibility testing in liquid or on solid media. MICs for compounds against each strain were determined by the broth microdilution or agar dilution method according to the guidelines of the Clinical Laboratories and Standards Institute, formerly the National Committee for Clinical Laboratory Standards (Clinical Laboratories and Standards Institute. Methods for Dilution Antimicrobial Susceptibility Tests for Bacteria That Grow Aerobically; Approved Standard—Seventh Edition. Document M7-A7. CLSI, Wayne, Pa., 2006; Clinical Laboratories and Standards Institute. The gram positive bacterial strains tested include S. aureus (Staphylococcus aureus (Isolate ID ATCC 29213)), E. faecalis (Enterococcus faecalis (Isolate ID ATCC 29212)) and S. pyogenes (Streptococcus pyogenes (Isolate ID ATCC 51339)). The gram negative bacterial strains tested include H. influenzae (Haemophilus influenzae (Isolate ID ATCC 49247))
# [2] = system: Haemophilus influenzae (Isolate ID ATCC 49247); test: Antibacterial activity, MIC, H. influenzae; type: cell-based; details: Gram negative strain; broth microdilution or agar dilution
# Experimental: as §1, §2
# [3] = biological target: Gyrase enzyme (A2B2 complex from Staphylococcus aureus) (UniProt P0A0K8); test: Gyrase ATPase assay (S. aureus enzyme); details: enzyme source (S. aureus or E. coli) not given; 1 mM ATP, 30° C., 60 minutes
# Experimental: On-Target Enzyme Assay: Determination of Gyrase ATPase Activity
# Gyrase converts ATP into ADP and inorganic phosphate. The released phosphate can be detected by the addition of malachite green solution and measured by monitoring the increase in absorbance at 600 nm. The ATPase assay is carried out in a buffer containing 2 mU/μl Gyrase enzyme (A2B2 complex from Staphylococcus aureus), 0.08 mg/ml double-stranded DNA, 8 mM HEPES.KOH pH 7.6, 100 mM K glutamate, 2 mM Mg acetate, 2 mM DTT, 0.01 mg/ml BSA, and 5% DMSO solution containing the inhibitor. Alternatively, the ATPase assay is carried out in a buffer containing 4.8 μg/mL Gyrase enzyme (A2B2 complex from Escherichia coli), 0.08 μg/mL ssDNA, 35 mM Tris pH 7.5, 24 mM KCl, 2 mM MgCl2, 6.5% Glycerol, 2 mM DTT, 1.8 mM Spermidine, 0.5 mg/mL BSA and 5% DMSO solution containing the inhibitor. The reaction is started by adding ATP to a final concentration of 1 mM and allowed to incubate at 30° C. for 60 minutes. The reaction is stopped by adding […] of malachite green solution (0.034% malachite green, 10 mM ammonium molybdate, 1 M HCl, 3.4% ethanol, 0.01% tween 20). Colour is allowed to develop for 5 minutes and the absorbance at 600 nm is measured spectrophotometrically. The IC50 values are determined from the absorbance readings using no compound and no enzyme controls.
# [4] = system: Streptococcus pyogenes (Isolate ID ATCC 51339); test: Antibacterial activity, MIC, S. pyogenes; type: cell-based; details: Gram positive strain; broth microdilution or agar dilution
# Experimental: as §1, §2
# [5] = system: Enterococcus faecalis (Isolate ID ATCC 29212); test: Antibacterial activity, MIC, E. faecalis; type: cell-based; details: Gram positive strain; broth microdilution or agar dilution
# Experimental: as §1, §2
structure (smiles),measurement,setting,value
CCNC(=O)Nc1nc2cc(-c3cnc(N4CCC(C)(C(=O)OCC)CC4)nc3)cc(C3CCN(C(C)=O)CC3)c2s1 [Compound 178],Antibacterial Activity (MIC) S. aureus (ATCC 29213),[1],D (“D” activity >16 μg/mL)
same,Antibacterial Activity (MIC) H. influenzae (ATCC 49247),[2],D (“D” activity >16 μg/mL)
same,Gyrase ATPase activity (IC50),[3],0.6 µg/mL
same,Antibacterial Activity (MIC) S. pyogenes (ATCC 51339),[4],C (“C” activity >1.0 μg/mL-16 μg/mL)
same,Antibacterial Activity (MIC) E. faecalis (ATCC 29212),[5],C (“C” activity >1.0 μg/mL-16 μg/mL)
